The values that follow are results of earlier work, collected in article PMC6359527, “Aptamer Efficacies for In Vitro and In Vivo Modulation of αC-Conotoxin PrXA Pharmacology” (2019).

The subject of one data set is adult muscle nAChR. Conditions: read-out: IC50, adult muscle nAChR; previously reported; cited from earlier work.
Another data set has as its system fetal muscle nAChR. Conditions: read-out: IC50, fetal muscle nAChR; previously reported; cited from earlier work.
For a further data set, the system named is mouse muscle contraction. Conditions: read-out: IC50 of inhibition of mouse muscle contraction; reported dose-dependence; cited from earlier work.

As for `CC[C@H](C)[C@H](NC(=O)CNC(=O)[C@H](Cc1ccc(O)cc1)NC(=O)[C@@H](N)[C@@H](C)O)C(=O)N[C@@H](Cc1ccc(O)cc1)C(=O)N[C@@H](CC(=O)O)C(=O)N[C@@H](C)C(=O)N[C@@H](CCCCN)C(=O)N1CCC[C@H]1C(=O)N1C[C@H](O)C[C@H]1C(=O)N[C@@H](Cc1ccccc1)C(=O)N[C@@H](CO)C(=O)N[C@H]1CSSC[C@@H](C(=O)N[C@H](C(=O)N[C@@H](CC(C)C)C(=O)N2CCC[C@H]2C(=O)N2C[C@H](O)C[C@H]2C(=O)N[C@@H](CC(N)=O)C(=O)N[C@@H](CC(C)C)C(=O)N[C@@H](CCCNC(=N)N)C(=O)N2CCC[C@H]2C(=O)N[C@@H](CCCCN)C(=O)N[C@@H](Cc2ccccc2)C(=O)N[C@@H](CCCCN)C(=O)N[C@@H](CCC(=O)O)C(N)=O)C(C)C)NC(=O)CNC(=O)CNC(=O)[C@H](CCCNC(=N)N)NC(=O)[C@H](CC(C)C)NC(=O)CNC(=O)[C@H](C)NC1=O`, the figures for the IC50 with adult muscle nAChR, with fetal muscle nAChR and in the data set on mouse muscle contraction were 1.8 nM, 3 nM and 23 nM, respectively.
